Measurements reported in PubChem BioAssay AID624099 (ICCB-Longwood, 2012).
Purpose: 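Knock-downs relieving repression by E2 of an HPV18 LCR luciferase reporter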 (primary screen). System: human C33A cervical carcinoma cells (HPV-negative) stably expressing BPV1 E2 and an HPV18 LCR luciferase reporter. Reagent: siRNA pool against human genes, 40 nM. Duration: 72 h. Detection: 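HPV18 LCR reporter light per well, converted to plate-wise z-scores that exclude control wells, and averaged over triplicate plates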. Direction: mean z-score and z-score: higher = stronger reporter signal, weaker E2 silencing. Hit rule: 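Mean z ≥ 2 together with z ≥ 2 in two or more of the three replicates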.
In all, the deposit lists about 21,000 reagents; shown is a random part of them. 497 of them (2.4%) were called active. 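Higher z means weaker E2 silencing; only reporter increases were scored, and knock-downs that hurt cell survival may mask genuine repressor factors.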 A number with no mark means an inactive call. Reagents against one gene are numbered here.

no.	gene symbol	pool no.	mean z-score	z-score, replicate A	z-score, replicate B	z-score, replicate C
1	TNFRSF13B (GeneID 23495)	1	0.15	0.26	0	0.2
2	ZNF23 (GeneID 7571)	1	1.18	1.09	1.35	1.09
3	CLIP1 (GeneID 6249)	1	-0.53	-0.33	-0.39	-0.88
4	SEPTIN14 (GeneID 346288)	1	0.47	0.49	0.32	0.61
5	RNF17 (GeneID 56163)	1	0.9	0.7	1.31	0.7
6	RNF17 (GeneID 56163)	2	-0.91	-1.06	-0.94	-0.74
7	ZNF622 (GeneID 90441)	1	0.44	0.25	0.55	0.51
8	RBFOX2 (GeneID 23543)	1	1.18	1.27	1.17	1.1
9	RECQL (GeneID 5965)	1	1.6	1.47	1.54	1.78
10	WHAMMP3 (GeneID 339005)	1	1.78	1.59	1.89	1.86
11	ALX1 (GeneID 8092)	1	-0.21	-0.06	0.14	-0.69
12	TUBA8 (GeneID 51807)	1	-0.17	0.13	-0.32	-0.33
13	KLHL25 (GeneID 64410)	1	0.73	0.74	0.85	0.59
14	MINDY2 (GeneID 54629)	1	-0.47	-0.73	-0.65	-0.03
15	MIR29B2CHG (GeneID 100128537)	1	-1.1	-1.24	-1.3	-0.76
16	ENDOD1 (GeneID 23052)	1	0.15	0.33	-0.05	0.17
17	LMF2 (GeneID 91289)	1	-2.42	-2.34	-2.22	-2.7
18	SLC9B1P2 (GeneID 389000)	1	-0.01	0.5	-0.34	-0.18
19	ABCC13 (GeneID 150000)	1	-0.88	-0.7	-0.79	-1.16
20	DGCR8 (GeneID 54487)	1	0.04	-0.33	-0.01	0.47
21	HIGD2B (GeneID 123346)	1	-0.25	-0.57	0.11	-0.28
22	GRIPAP1 (GeneID 56850)	1	1.77	2	1.58	1.74
23	CDC27 (GeneID 996)	1	-0.55	-0.51	-0.51	-0.64
24	DNAI4 (GeneID 79819)	1	-1.34	-1.42	-1.3	-1.3
25	ARHGEF40 (GeneID 55701)	1	2.56 (active)	2.81	2.66	2.22
26	PROX1 (GeneID 5629)	1	-0.43	-0.43	-0.19	-0.68
27	KCNJ14 (GeneID 3770)	1	0.76	0.88	0.73	0.69
28	TEDC2-AS1 (GeneID 729652)	1	0.95	1.06	0.77	1.02
29	ZNF680 (GeneID 340252)	1	0.34	0.45	0.17	0.41
30	BAGE3 (GeneID 85318)	1	-1.51	-1.79	-1.18	-1.55
31	KEAP1 (GeneID 9817)	1	-0.52	-0.41	-0.53	-0.63

Next part, starting with the last 8 of the part before.
no.	gene symbol	pool no.	mean z-score	z-score, replicate A	z-score, replicate B	z-score, replicate C
24	DNAI4 (GeneID 79819)	1	-1.34	-1.42	-1.3	-1.3
25	ARHGEF40 (GeneID 55701)	1	2.56 (active)	2.81	2.66	2.22
26	PROX1 (GeneID 5629)	1	-0.43	-0.43	-0.19	-0.68
27	KCNJ14 (GeneID 3770)	1	0.76	0.88	0.73	0.69
28	TEDC2-AS1 (GeneID 729652)	1	0.95	1.06	0.77	1.02
29	ZNF680 (GeneID 340252)	1	0.34	0.45	0.17	0.41
30	BAGE3 (GeneID 85318)	1	-1.51	-1.79	-1.18	-1.55
31	KEAP1 (GeneID 9817)	1	-0.52	-0.41	-0.53	-0.63
32	LOC200491 (retired record) (GeneID 200491)	1	-1.43	-1.03	-1.89	-1.38
33	IGFBP4 (GeneID 3487)	1	-0.68	-0.27	-0.77	-1.01
34	BPIFC (GeneID 254240)	1	-1.44	-0.95	-1.79	-1.6
35	NPNT (GeneID 255743)	1	-0.33	-0.36	-0.15	-0.47
36	B3GALNT2 (GeneID 148789)	1	-0.91	-1.32	-0.67	-0.74
37	ACTR1B (GeneID 10120)	1	-0.16	-0.22	-0.37	0.1
38	ZNF251 (GeneID 90987)	1	1.95	2	1.51	2.33
39	HMBOX1 (GeneID 79618)	1	0.73	0.48	0.87	0.83
40	LRRC26 (GeneID 389816)	1	-0.18	-0.04	-0.17	-0.33
41	KLRC3 (GeneID 3823)	1	-1.13	-1.24	-1.02	-1.13
42	F12 (GeneID 2161)	1	0.11	0.08	0.25	-0.01
43	NCF4 (GeneID 4689)	1	-0.2	-0.02	-0.36	-0.23
44	NOVA1 (GeneID 4857)	1	1.67	1.83	1.5	1.67
45	MACROD1 (GeneID 28992)	1	-0.4	-0.56	-0.7	0.06
46	OR6K2 (GeneID 81448)	1	-0.1	-0.53	0.34	-0.1
47	MMP2 (GeneID 4313)	1	0.02	0.16	0	-0.08
48	TMEM81 (GeneID 388730)	1	-1.14	-1.46	-0.33	-1.64
49	LOC388248 (GeneID 388248)	1	-0.47	-0.54	-0.62	-0.26
50	EFR3B (GeneID 22979)	1	1.51	1.17	1.74	1.62
51	BMS1 (GeneID 9790)	1	-0.44	-0.46	-0.56	-0.29
52	CRADD (GeneID 8738)	1	-0.19	-1.12	0.28	0.28
53	THRSP (GeneID 7069)	1	0.89	0.73	0.68	1.26
54	TUBE1 (GeneID 51175)	1	-1.49	-1.57	-1.45	-1.46
55	MATR3 (GeneID 9782)	1	0.83	0.78	0.94	0.76
56	GTF3C3 (GeneID 9330)	1	-0.5	-0.56	-0.4	-0.55
57	TDP1 (GeneID 55775)	1	-1.9	-2.06	-2.19	-1.45
